Pooled drug test results. Numbers come from NIAID ChemDB, via PubChem.

All rows: tests in culture; organism: Mycobacterium tuberculosis

Inhibition is in % at the dose shown (toxicity tests: loss of growth or viability). A number after MIC or MFC names an inhibition level or a share of isolates. a–b is a range or a potency band. Rows are shuffled and stem from different studies. An empty or dashed field is not shown. ECn is the concentration giving n% inhibition of infection, replication or growth. MIC bound comes from a single tested concentration.

| structure | cells | tested at | strain | method | conditions | endpoint | value |
|---|---|---|---|---|---|---|---|
| CC(C)N=c1cc2n(-c3ccc(Cl)cc3)c3ccccc3nc-2cc1Nc1ccc(Cl)cc1 | - | - | 29 | - | multidrug-resistant | MIC | 0.25 µg/mL |
| N#C/C(=C/c1cccc2ccccc12)n1nnc2ccccc21 | - | 12.5 µg/mL | H37Rv | - | - | inhibition | 10% |
| NC(=O)CN1C(=O)C2C3CCC(O3)C2C1=O | - | 12.5 µg/mL | H37Rv | BACTEC | - | inhibition | 8% |
| C=C[C@@](C)(Cl)[C@@H](Br)/C=C/[C@](C)(Cl)CBr | - | - | H37Rv | - | - | MIC | >128 µg/mL |
| COc1ccc(/C=C(\C#N)n2nnc3ccccc32)cc1OC | - | - | H37Rv | - | - | EC50 | >12.5 µg/mL |
| NNC(=O)c1ccco1 | - | 12.5 µg/mL | H37Rv | BACTEC | - | inhibition | 0% |
| CC(=O)c1c(COc2ccc(Cl)cc2)n([O-])c2ccccc2[n+]1=O | VERO | - | H37Rv | BACTEC | - | EC50 | <6.25 µg/mL |
| COC(c1ccc(C(C)(C)C)cc1)(c1ccc(C(C)(C)C)cc1)c1cc(C(O)(c2cc(C(OC)(c3ccc(C(C)(C)C)cc3)c3ccc(C(C)(C)C)cc3)c(C)cc2C)c2cc(C(OC)(c3ccc(C(C)(C)C)cc3)c3ccc(C(C)(C)C)cc3)c(C)cc2C)c(C)cc1C | - | - | H37Rv | resazurin | - | MIC bound | >6.25 µg/mL |
| c1ccc(Sc2nnc(N3CCN(c4nc(N5CCN(c6ccccc6)CC5)c5ccccc5n4)CC3)o2)cc1 | - | 6.25 µg/mL | H37Rv | BACTEC / fluorescence | - | inhibition | 0% |
| COC(=O)Nc1nc2ccc(C(=O)C3CC3)cc2[nH]1 | - | 0.5 µM | - | BACTEC | - | inhibition | 0% |
| CC1COc2c(N3CCN(Cc4ccc5c(c4)OCO5)CC3)c(F)c([N+](=O)[O-])c3c(=O)c(C(=O)O)cn1c23 | - | - | - | agar | - | MIC99 | 2.96 µM |
| Cc1ccccc1NNC(=O)N1CCN(c2nc(N3CCN(c4ccccc4)CC3)c3ccccc3n2)CC1 | - | 200 µg/mL | H37Rv | agar / visual reading | - | inhibition | 89% |
| CC1COc2c(N3CCSCC3)c(F)c([N+](=O)[O-])c3c(=O)c(C(=O)O)cn1c23 | - | - | MDR-TB | agar | - | MIC99 | 1.91 µM |
| C[C@@H]1CCC23[C@H]1CC[C@@]2(C)C[C@@](C)(O)[C@H]3C | - | - | H37Rv | - | - | MIC | 128 µg/mL |
| COc1cc2c(cc1OC)CN(c1c(F)cc3c(=O)c(C(=O)O)cn4c3c1OCC4C)CC2 | - | - | MDR-TB | agar | - | MIC99 | 3.43 µM |
| O=C(N/N=C/c1cccc2ccccc12)C(=O)N/N=C/c1cccc2ccccc12 | - | - | H37Rv | BACTEC | - | MIC | ≥12.5 µg/mL |
| Cc1nc2scc(-c3ccco3)c2c(=O)n1NC(=O)c1ccc(Cl)cc1 | - | - | CNCTC MY331/88 | - | - | MIC | 16 µM |
| CC(=O)c1c(COc2ccccc2)n([O-])c2ccccc2[n+]1=O | VERO | 6.25 µg/mL | H37Rv | BACTEC | - | inhibition | 96% |
| COc1ccc2c(C)cc(N/N=C/c3ccc([N+](=O)[O-])o3)nc2c1 | - | - | H37Rv | BACTEC | - | MIC | ≥12.5 µg/mL |
| CC1COc2c(N3CCN(C(c4ccccc4)c4ccc(Cl)cc4)CC3)c(F)c([N+](=O)[O-])c3c(=O)c(C(=O)O)cn1c23 | - | - | - | agar | - | MIC | 2.63 µM |
| O=C(OC(CS)CS)c1ccccc1 | - | - | H37Rv | - | - | MIC | 1.56 µg/mL |
| O=C1Nc2cnc(Cl)nc2Nc2ccc(Cl)cc21 | - | - | H37Rv | BACTEC | - | MIC bound | >12.5 µg/mL |
| N#C/C(=C\c1ccc[nH]1)n1nc2ccccc2n1 | - | - | H37Rv | - | - | EC50 | >12.5 µg/mL |
| O=C(O)c1ccc(Sc2nnc(N3CCN(c4nc(N5CCN(c6ccccc6)CC5)c5ccccc5n4)CC3)o2)cc1 | - | 100 µg/mL | H37Rv | agar / visual reading | - | inhibition | 91% |
| CC1(C)[C@@H](Br)CC[C@]2(C)O[C@H]3COC(=O)C3=C[C@@H](O)[C@@H]12 | - | - | H37Rv | - | - | MIC | 128 µg/mL |
| CC(=O)SCC1CS1 | - | - | H37Rv | - | - | MIC | 0.4–0.8 µg/mL |
| CC(C)C1=CC2=CC(=O)[C@H]3C(C)(C)CCC[C@]3(C)C2=C(O)C1=O | - | 12.5 µg/mL | H37Rv | BACTEC | - | inhibition | 99% |
| Cc1ccc(NNC(=O)N2CCN(c3nc(N4CCN(c5ccccc5)CC4)c4ccccc4n3)CC2)cc1 | - | - | H37Rv | BACTEC / fluorescence | - | MIC | >6.25 µg/mL |
| CC(=O)OCC(S)CS | - | - | H37Rv | - | - | MIC | 3.126–6.25 µg/mL |
| O=C(NNc1ccccc1[N+](=O)[O-])N1CCN(c2nc(N3CCN(c4ccccc4)CC3)c3ccccc3n2)CC1 | - | - | H37Rv | agar / visual reading | - | MIC | 12.5 µg/mL |
| C=C1C[C@H](O)[C@H](Br)C(C)(C)[C@@]12CCC(C)=C(Cl)C2 | - | - | H37Rv | - | - | MIC | 32 µg/mL |
| NC(=O)c1csc(C(O)Cc2ccccc2)n1 | - | - | H37Rv | BACTEC | - | MIC bound | >12.5 µg/mL |
| CCCCCCCOc1ccccc1NC(=O)OCCN1CCCCCC1 | - | - | My 331/88 | - | - | MIC | 16 µM |
| CCC(=O)OCC(S)CS | - | - | H37Rv | - | - | MIC | 12.5 µg/mL |
| CC(=O)c1c(C)n([O-])c2ccc(C)cc2[n+]1=O | VERO | - | H37Rv | BACTEC | - | MIC | 3.13 µg/mL |
| COC(=O)SCC1CS1 | - | - | H37Rv | - | - | MIC | 6.25–12.5 µg/mL |
| CO[C@H]1/C=C/O[C@@]2(C)Oc3c(C)c(O)c4c(O)c(c(/C=N/N5CCN(C)CC5)c(O)c4c3C2=O)NC(=O)/C(C)=C\C=C\[C@H](C)[C@H](O)[C@@H](C)[C@@H](O)[C@@H](C)[C@H](OC(C)=O)[C@@H]1C | - | - | H37Rv | resazurin | - | MIC | 15 µg/mL |
| Oc1c(Cl)cc(Cl)cc1-c1c(Cl)cc(Cl)c(Oc2ccc(Cl)cc2Cl)c1O | - | - | H37Rv | - | - | MIC | 64 µg/mL |
| CCC1CCC2c3c([nH]c4ccccc34)C3C(=O)N(c4ccc(OC)cc4)C(=O)C3C2C1 | - | - | H37Rv | BACTEC | - | MIC bound | >12.5 µg/mL |
| Cc1cc(=O)oc2cc(N)ccc12 | - | - | 3426 | resazurin | - | MIC | 1000 µg/mL |
| N#Cc1c(N)[n+]([O-])c2cc(F)c(Cl)cc2[n+]1[O-] | - | - | H37Rv | - | - | MIC | <6.25 µg/mL |
| O=C(CCCl)SCC1CS1 | - | - | H37Rv | - | - | MIC | 6.25 µg/mL |
| CCN(CC)CCNC(=O)Nc1c(C#N)[n+]([O-])c2ccccc2[n+]1[O-] | - | - | H37Rv | - | - | MIC | >12.5 µg/mL |
| c1ccc(-c2nc(N=C3N=c4ccccc4=N3)[nH]c2-c2ccccn2)nc1 | - | 12.5 µg/mL | H37Rv | BACTEC | - | inhibition | 95% |
| CO[C@H]1/C=C/O[C@@]2(C)Oc3c(C)c(O)c4c(O)c(c(N5CCN(Cc6c(C)cc(C)cc6C)CC5)c(O)c4c3C2=O)NC(=O)/C(C)=C\C=C\[C@H](C)[C@H](O)[C@@H](C)[C@@H](O)[C@@H](C)[C@H](OC(C)=O)[C@@H]1C | - | - | 131-4 | - | - | MBC | 0.06 µg/mL |
| CCOC(=O)Nc1c(C#N)[n+]([O-])c2cc(C)c(C)cc2[n+]1[O-] | - | 6.25 µg/mL | H37Rv | - | - | inhibition | 99% |
| C[C@H]1COc2c(N3CCC(O)(c4ccc(Cl)cc4)CC3)c(F)cc3c(=O)c(C(=O)O)cn1c23 | - | - | - | agar | - | MIC99 | 6.62 µM |
| COc1ccc(OCc2c(C(C)=O)[n+](=O)c3ccccc3n2[O-])cc1 | VERO | 6.25 µg/mL | H37Rv | BACTEC | - | inhibition | 100% |
| O=C(SCC1CS1)c1ccc(N=Nc2ccccc2)cc1 | - | - | H37Rv | - | - | MIC | 3.125 µg/mL |
| COC(CC(C)(O)C#CCC(C)(O)/C=C/C1=C(C)CCCC1(C)C)OC | - | - | H37Rv | - | - | MIC bound | >6.25 µg/mL |
| COc1ccc(NC(=O)OCCN2CCCCC2)cc1 | - | - | My 331/88 | - | - | MIC | 250 µM |
| NNC(=O)c1ncn([C@@H]2O[C@H](CO)[C@@H](O)[C@H]2O)c1C(=O)NN | - | - | H37Rv | BACTEC | - | MIC bound | >12.5 µg/mL |
| CCCCCCCCOc1ccc(NC(=O)OCCN(C)C)cc1 | - | - | My 331/88 | - | - | MIC | 8 µM |
| C=CCC1(C(C)C(OC(C)=O)c2ccc3c(c2)OCO3)CC(OC)C=CC1=O | - | - | H37Rv | BACTEC | - | MIC bound | >12.5 µg/mL |
| COc1cc(O)c2c(=O)c3c(O)ccc(O)c3oc2c1 | - | - | - | - | - | MIC | 200 µg/mL |
| CC(C)OC(=O)Nc1c(C#N)[n+]([O-])c2ccccc2[n+]1[O-] | - | 6.25 µg/mL | H37Rv | - | - | inhibition | 97% |
| O=C1c2ccccc2C(=O)N1CCCc1ccc2oc3ccccc3c2c1 | - | - | H37Rv | BACTEC | - | MIC bound | >12.5 µg/mL |
| C=C(C)[C@@H]1CC[C@]2(CO)CC[C@]3(C)[C@H](CC[C@@H]4[C@@]5(C)CC[C@H](OC(C)=O)C(C)(C)[C@@H]5CC[C@]43C)[C@@H]12 | - | - | H37Rv | - | - | MIC | >128 µg/mL |
| O=c1c2cccc(O)c2oc2cc(O)cc(O)c12 | - | - | - | - | - | MIC | 200 µg/mL |
| COc1ccc2c(c1)n([O-])c1ccccc1[n+]2=O | - | - | INH-r | - | - | MIC | 0.8 µg/mL |
| CN(C)CCCNC(=O)Nc1c(C#N)[n+]([O-])c2cc(Cl)c(Cl)cc2[n+]1[O-] | - | 6.25 µg/mL | H37Rv | - | - | inhibition | 99% |
| CCOC(=O)N1CCN(C(=S)N/N=C(\C)c2cnccn2)CC1 | - | - | H37Rv | BACTEC | - | MIC | ≥12.5 µg/mL |
| C/C=N/n1c(C)nc2scc(-c3ccco3)c2c1=O | - | - | CNCTC MY331/88 | - | - | MIC | 62 µM |
| CC1CN(c2c(F)c([N+](=O)[O-])c3c(=O)c(C(=O)O)cn4c3c2OCC4C)CC(C)O1 | - | - | MDR-TB | agar | - | MIC99 | 3.7 µM |
| O=C(O)CN1CCN(CC(=O)O)CC1 | - | - | H37Rv | BACTEC | - | MIC | ≥12.8 µg/mL |
| CC1COc2c(N3CCC4(CC3)OCCO4)c(F)c([N+](=O)[O-])c3c(=O)c(C(=O)O)cn1c23 | - | - | MDR-TB | agar | - | MIC99 | 0.09 µM |
| CCCCCOc1ccc(NC(=O)OCCN2CCCCC2)cc1 | - | - | My 331/88 | - | - | MIC | 62.5 µM |
| COc1cc2c(=O)c3c(O)cc(O)cc3oc2c(OC)c1O | - | - | - | - | - | MIC | 5 µg/mL |
| Cc1onc(-c2c(F)cccc2F)c1C(=O)N1CCN(c2c(F)cc3c(=O)c(C(=O)O)cn4c3c2OCC4C)CC1 | - | - | - | agar | - | MIC99 | 10.99 µM |
| CC(=O)c1c(CBr)n([O-])c2cc(Cl)c(Cl)cc2[n+]1=O | - | - | H37Rv | BACTEC | - | EC50 | >6.25 µg/mL |
| CCC[C@@H](O)C1=C(Br)/C(=C/Br)OC1=O | - | - | H37Rv | - | - | MIC | >128 µg/mL |
| O=C(Cc1ccccc1)OCC(S)CS | - | - | H37Rv | - | - | MIC | 25 µg/mL |
| Cc1nc2scc(-c3ccco3)c2c(=O)n1N | - | - | CNCTC MY331/88 | - | - | MIC | 482 µM |
| O=[N+]([O-])c1cccc(Sc2nnc(N3CCN(c4nc(N5CCN(c6ccccc6)CC5)c5ccccc5n4)CC3)o2)c1 | - | - | H37Rv | agar / visual reading | - | MIC | 25 µg/mL |
| Cc1cc2c(cc1C)[n+]([O-])c(NC(=O)OC(C)C)c(C#N)[n+]2[O-] | - | 6.25 µg/mL | H37Rv | - | - | inhibition | 100% |
| COc1cc(O)c2c(=O)c3ccc(O)c(OC)c3oc2c1 | - | - | - | - | - | MIC | 100 µg/mL |
| Cc1nc2scc(-c3ccco3)c2c(=O)n1/N=C/c1ccccc1 | - | - | CNCTC MY331/88 | - | - | MIC | 50 µM |
| C1CCCC(NC2=NCCO2)CCC1 | - | 12.5 µg/mL | H37Rv | BACTEC | - | inhibition | -27% |
| CC(=O)c1ccccc1NNC(=O)N1CCN(c2nc(N3CCN(c4ccccc4)CC3)c3ccccc3n2)CC1 | - | 6.25 µg/mL | H37Rv | agar / visual reading | - | inhibition | 99% |
| COc1ccc(/C=C(/C#N)n2nc3ccccc3n2)cc1OC | - | 12.5 µg/mL | H37Rv | - | - | inhibition | 31% |
| CCCCCCCOc1cccc(NC(=O)OCCN2CCCCC2)c1 | - | - | My 331/88 | - | - | MIC | 16 µM |
| Clc1cccc(Cl)c1C1SCc2nc3ccccc3n21 | - | - | H37Rv | BACTEC | - | MIC bound | >12.5 µg/mL |
| NC(=O)/C(=C\c1ccc(C(F)(F)F)cc1)n1nnc2ccccc21 | - | 12.5 µg/mL | H37Rv | - | - | inhibition | 0% |
| CC(=O)O[C@H]1CC/C(C)=C\[C@H]2OC(=O)[C@H]3O[C@]32[C@@H](O)[C@@H]2C(C)=CC[C@@H](OC(C)=O)[C@@]12C | - | - | H37Rv | - | - | MIC | >128 µg/mL |

The last 4 rows once more:

{"structure": "CCCCCCCOc1cccc(NC(=O)OCCN2CCCCC2)c1", "strain": "My 331/88", "endpoint": "MIC", "value": "16 µM"}
{"structure": "Clc1cccc(Cl)c1C1SCc2nc3ccccc3n21", "strain": "H37Rv", "method": "BACTEC", "endpoint": "MIC bound", "value": ">12.5 µg/mL"}
{"structure": "NC(=O)/C(=C\\c1ccc(C(F)(F)F)cc1)n1nnc2ccccc21", "tested at": "12.5 µg/mL", "strain": "H37Rv", "endpoint": "inhibition", "value": "0%"}
{"structure": "CC(=O)O[C@H]1CC/C(C)=C\\[C@H]2OC(=O)[C@H]3O[C@]32[C@@H](O)[C@@H]2C(C)=CC[C@@H](OC(C)=O)[C@@]12C", "strain": "H37Rv", "endpoint": "MIC", "value": ">128 µg/mL"}